Assay results: patent US9988341B2, “Bacterial topoisomerase inhibitors and use thereof” (THE FLORIDA INTERNATIONAL UNIVERSITY BOARD OF TRUSTEES, priority 2016, dated 2018)
Read-outs that look alike come from different tables or passages of the source.

Protein sequences, listed by entry. Tags and fused reporters are not part of them.
UniProt P06612, whole entry: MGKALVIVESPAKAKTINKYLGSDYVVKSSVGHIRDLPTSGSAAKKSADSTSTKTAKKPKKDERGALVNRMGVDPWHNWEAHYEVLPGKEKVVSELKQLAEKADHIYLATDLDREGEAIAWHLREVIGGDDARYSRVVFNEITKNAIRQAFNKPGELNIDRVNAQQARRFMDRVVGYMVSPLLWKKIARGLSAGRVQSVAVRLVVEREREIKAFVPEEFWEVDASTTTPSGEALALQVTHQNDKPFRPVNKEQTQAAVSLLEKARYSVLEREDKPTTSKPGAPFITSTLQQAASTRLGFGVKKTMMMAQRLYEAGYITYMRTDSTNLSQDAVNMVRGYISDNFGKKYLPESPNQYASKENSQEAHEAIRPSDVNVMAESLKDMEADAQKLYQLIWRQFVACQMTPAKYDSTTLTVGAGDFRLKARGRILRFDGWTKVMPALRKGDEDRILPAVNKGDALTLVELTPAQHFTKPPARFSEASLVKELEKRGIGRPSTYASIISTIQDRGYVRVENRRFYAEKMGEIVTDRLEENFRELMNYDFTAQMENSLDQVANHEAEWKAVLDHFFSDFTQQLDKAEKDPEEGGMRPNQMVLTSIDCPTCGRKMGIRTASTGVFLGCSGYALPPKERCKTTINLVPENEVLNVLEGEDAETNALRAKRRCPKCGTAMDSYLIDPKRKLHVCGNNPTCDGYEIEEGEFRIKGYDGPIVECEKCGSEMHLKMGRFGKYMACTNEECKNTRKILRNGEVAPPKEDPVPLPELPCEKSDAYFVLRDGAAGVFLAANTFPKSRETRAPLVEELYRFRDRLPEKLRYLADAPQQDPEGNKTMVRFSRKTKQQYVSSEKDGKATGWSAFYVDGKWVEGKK
UniProt P9WG49, whole entry: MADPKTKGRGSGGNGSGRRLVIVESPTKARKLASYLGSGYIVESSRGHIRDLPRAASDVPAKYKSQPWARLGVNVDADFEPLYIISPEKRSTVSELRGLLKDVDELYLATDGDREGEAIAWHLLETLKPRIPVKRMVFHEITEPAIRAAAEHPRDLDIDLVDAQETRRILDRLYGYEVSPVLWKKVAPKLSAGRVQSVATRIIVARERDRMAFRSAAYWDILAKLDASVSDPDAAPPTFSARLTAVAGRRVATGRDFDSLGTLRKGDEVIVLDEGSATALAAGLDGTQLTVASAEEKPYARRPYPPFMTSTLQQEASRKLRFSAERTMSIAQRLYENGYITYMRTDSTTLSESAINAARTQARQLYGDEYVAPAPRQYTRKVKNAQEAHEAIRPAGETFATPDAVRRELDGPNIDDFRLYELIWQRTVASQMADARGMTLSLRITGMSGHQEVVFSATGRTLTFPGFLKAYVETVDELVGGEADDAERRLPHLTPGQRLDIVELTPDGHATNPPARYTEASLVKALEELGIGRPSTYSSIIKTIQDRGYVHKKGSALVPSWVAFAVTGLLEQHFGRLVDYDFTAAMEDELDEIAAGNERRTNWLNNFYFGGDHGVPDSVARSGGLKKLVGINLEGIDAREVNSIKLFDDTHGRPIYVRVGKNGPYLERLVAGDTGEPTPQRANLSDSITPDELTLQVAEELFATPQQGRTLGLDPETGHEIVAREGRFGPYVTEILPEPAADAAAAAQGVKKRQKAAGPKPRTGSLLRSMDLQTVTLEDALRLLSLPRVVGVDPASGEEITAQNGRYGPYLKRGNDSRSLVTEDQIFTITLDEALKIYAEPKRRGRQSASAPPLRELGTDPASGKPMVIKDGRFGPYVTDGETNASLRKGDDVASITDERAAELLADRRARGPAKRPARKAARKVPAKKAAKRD

Legend:
Mtb-lux = experiment: Percent Mtb-lux killing
E. coli topoisomerase I = E. coli topoisomerase I (Escherichia coli, UniProt P06612); experiment: Bacterial topoisomerase I relaxation activity inhibition assay (EcTopI)
[1] = molecular target: M. tuberculosis topoisomerase I (Mycobacterium tuberculosis, UniProt P9WG49); settings: read-out: MtbTopI IC50; Table 3
[2] = read-out: EcTopI relaxation inhibition (IC50), Table 1, individual compounds tested as crude material

Structure (SMILES) | Percent Mtb-lux killing 5 μg/mL (Mtb-lux) | IC50 (E. coli topoisomerase I; read-out: EcTopI IC50, Table 3) | IC50 (E. coli topoisomerase I; [2]) | IC50 [1]
CNCCCC[C@@H](CN[C@H](CN)CCCN)NCCc1cccc2ccccc12 | 5.4% | 1.9 µM | 1.9 µM | 0.625 µM
CNCCC[C@H](CN[C@@H](CN)CC1CCCCC1)NCCCCC1CCCCC1 | – | – | 80 µM | –
CNCCC[C@@H](CN[C@H](CN)Cc1ccc2ccccc2c1)NCCc1cc(C(F)(F)F)cc(C(F)(F)F)c1 | – | – | 40 µM | –
N=C(N)NCCC[C@@H](CN[C@H](CN)CCCN)NCCc1cccc2ccccc12 | 22.7% | 1.25 µM | 1.2 µM | 1.25 µM
CNCCCC[C@H](CN)NC[C@H](CCCCNC)NCCc1cccc2ccccc12 | 12.6% | 1.25 µM | 1.2 µM | 1.9 µM
CCC[C@H](CN[C@H](CN)CCCN)NCCc1cccc2ccccc12 | 42.0% | 7.5 µM | 7.5 µM | 10 µM
CNCCC[C@@H](CN[C@H](CN)Cc1ccc2ccccc2c1)NCCc1ccc(Cl)c(Cl)c1 | – | – | 30 µM | –
CNCCCC[C@@H](CN)NC[C@H](CCCCNC)NCCc1ccc(O)c(O)c1 | – | – | 120 µM | –
NC[C@H](CC1CCCCC1)NC[C@H](Cc1ccc(F)cc1)NCCc1cc(C(F)(F)F)cc(C(F)(F)F)c1 | – | – | 40 µM | –
CNCCCC[C@H](CN)NC[C@H](CCCNC(=N)N)NCc1cccc2ccccc12 | 35.8% | – | – | 2.5 µM
CNCCCC[C@H](CN)NC[C@H](CCCCNC)NCCc1ccc(O)c(O)c1 | – | – | 80 µM | –
CNCCC[C@H](CN[C@H](CN)Cc1ccc2ccccc2c1)NCCCCC1CCCCC1 | – | – | 40 µM | –
CCC[C@H](CN[C@@H](CN)CCCCNC)NCc1cccc2ccccc12 | 56.0% | – | – | 5 µM
NC[C@H](CC1CCCCC1)NC[C@H](Cc1ccc(F)cc1)NCCCCC1CCCCC1 | – | – | 40 µM | –
CNCCCC[C@@H](CN)NC[C@H](CCCNC(=N)N)NCCc1cccc2ccccc12 | 30.7% | 2.5 µM | 2.5 µM | 1.25 µM
NC[C@@H](CC1CCCCC1)NC[C@H](Cc1ccc(F)cc1)NCCc1cc(C(F)(F)F)cc(C(F)(F)F)c1 | – | – | 40 µM | –

Structure (SMILES) | Percent Mtb-lux killing 5 μg/mL (Mtb-lux) | IC50 (E. coli topoisomerase I; read-out: EcTopI IC50, Table 3) | IC50 (E. coli topoisomerase I; [2]) | IC50 [1]
CNCCC[C@@H](CN[C@H](CN)Cc1ccc2ccccc2c1)NCCCCC1CCCCC1 | – | – | 40 µM | –
CNCCC[C@H](CN[C@H](CN)Cc1ccc2ccccc2c1)NCC1CCC(C(C)(C)C)CC1 (some centres unmarked) | – | – | 40 µM | –
CCCC[C@H](CN[C@H](CN)Cc1ccc2ccccc2c1)NCCc1cc(C(F)(F)F)cc(C(F)(F)F)c1 | – | – | 40 µM | –
NC[C@@H](CC1CCCCC1)NC[C@H](Cc1ccc(F)cc1)NCCCCC1CCCCC1 | – | – | 40 µM | –
CCCC[C@H](CN[C@H](CN)CC1CCCCC1)NCCc1cc(C(F)(F)F)cc(C(F)(F)F)c1 | – | – | 40 µM | –
CCCC[C@H](CN[C@@H](CN)CC1CCCCC1)NCCc1cc(C(F)(F)F)cc(C(F)(F)F)c1 | – | – | 40 µM | –
NC[C@H](Cc1ccc2ccccc2c1)NC[C@H](Cc1ccc(F)cc1)NCCc1cc(C(F)(F)F)cc(C(F)(F)F)c1 | – | – | 40 µM | –
NC[C@H](Cc1ccc2ccccc2c1)NC[C@H](Cc1ccc(F)cc1)NCCCCC1CCCCC1 | – | – | 40 µM | –
CNCCC[C@@H](CN[C@H](CN)Cc1ccc2ccccc2c1)NCC1CCC(C(C)(C)C)CC1 (some centres unmarked) | – | – | 40 µM | –
CNCCCC[C@@H](CN)NC[C@H](CCCCNC)NCCc1cccc2ccccc12 | 5.9% | – | – | 2.5 µM
CNCCC[C@H](CN[C@H](CN)Cc1ccc2ccccc2c1)NCCc1cc(C(F)(F)F)cc(C(F)(F)F)c1 | – | – | 40 µM | –
CCCC[C@H](CN[C@H](CN)Cc1ccc2ccccc2c1)NCCCCC1CCCCC1 | – | – | 40 µM | –
CCC[C@H](CN[C@H](CN)CCCCNC)NCCc1cccc2ccccc12 | 58.6% | – | – | 5 µM
N=C(N)NCCC[C@@H](CN[C@H](CN)CCCN)NCCc1cccc(Br)c1 | – | – | 40 µM | –
CC(C)(C)C1CCC(CN[C@H](CN[C@H](CN)Cc2ccc3ccccc3c2)Cc2ccc(F)cc2)CC1 (some centres unmarked) | – | – | 40 µM | –
